Compound potency records, mixed from different reports. Data source: NIAID ChemDB in PubChem.

Common to all: tests in culture; organism: Mycobacterium tuberculosis

Blank or dashed fields: not listed here. A number after MIC or MFC names an inhibition level or a share of isolates. Conditions beyond the fields shown may differ between rows. MIC bound: limit read from a one-dose screen. ECn is the concentration giving n% inhibition of infection, replication or growth. Percent inhibition refers to the dose given; in toxicity tests it is the harm to the cells.

compound,tested at,endpoint,method,strain,value
COc1ccc2nc3cc(Cl)ccc3c(NC(C)(C)CO)c2c1,,MIC,,H37Rv,>100 µg/mL
Fc1ccccc1CCNCCNC12CC3CC(CC(C3)C1)C2,,MIC,,,50 µM
O=C1CC(SC(=S)N2CCCCC2)C(=O)N1c1ccccc1,128 µg/mL,inhibition,BACTEC,H37Rv,100%
CCOC(=O)Nc1cc2nc(C)c(-c3ccccc3)nc2c(N)n1,12.5 µg/mL,inhibition,,H37Rv,28%
CCOC(=O)C1=C(C(=O)c2ccc(OC)cc2)C(c2ccc([N+](=O)[O-])cc2)C(C(=O)c2ccc(OC)cc2)=C(C(=O)OCC)N1,12.5 µg/mL,inhibition,BACTEC,H37Rv,55%
O=C(c1ccc(-c2ccccc2)cc1)c1ccc(-c2ccccc2)cc1,,MIC,,H37Rv,>100 µg/mL
CCCCC(Nc1cc(NC(=O)OCC)nc(N)c1[N+](=O)[O-])C(C)O,,EC50,,H37Rv,>12.5 µg/mL
Nc1nnc2nc(C(C(=O)c3ccccc3Cl)c3nc4nnc(N)n4[nH]c3=O)c(=O)[nH]n12,12.5 µg/mL,inhibition,BACTEC,H37Rv,18%
CC(C)(CN)CN,,MIC,,H37Rv,>100 µg/mL
CCOC(=O)Nc1cc(N)c2c(n1)OCC(c1ccc(OC)cc1)=N2,,EC50,,H37Rv,>12.5 µg/mL
ON=C1CCCCC1,,MIC,,H37Rv,>100 µg/mL
CC(C)=CCC/C(C)=C/CNCCNC[C@]1(C)CCC[C@]2(C)c3ccc(C(C)C)cc3CC[C@@H]12,,MIC,,,12.5 µM
CCCCC(=O)N/N=C/c1ccc(O)cc1O,,MIC,BACTEC,H37Rv,≥12.5 µg/mL
O=C(c1ccccc1)c1ccsc1,,MIC,,H37Rv,50 µg/mL
Fc1ccc(CCNCCNCCC2=CCCCC2)cc1,,MIC,,,12.5 µM
COc1ccc(C2Oc3ccc(Br)cc3C(=O)C2O)cc1,,EC50,,,>12.5 µg/mL
OC[C@H]1O[C@@H](Oc2ccc(O)cc2)[C@H](O)[C@@H](O)[C@@H]1O,,MIC,,H37Rv,>100 µg/mL
CC[C@H]1OC(=O)[C@H](C)[C@@H](O[C@H]2C[C@@](C)(OC)[C@@H](O)[C@H](C)O2)[C@H](C)[C@@H](O[C@@H]2O[C@H](C)C[C@H](N(C)C)[C@H]2O)[C@](C)(O)C[C@@H](C)C(=O)[C@H](C)[C@@H](O)[C@]1(C)O,,MBC90,,MDR,>8 µg/mL
CCOc1cc(NC(=O)c2ccco2)c(OCC)cc1N,,MIC,,H37Rv,>100 µg/mL
CCCCCCCCCCCNCCNCc1cccc2ccccc12,,MIC,,,25 µM
CCn1c(O)c(N=NC(=S)c2ccc3ccccc3n2)c2ccccc21,12.8 µg/mL,inhibition,BACTEC,H37Rv,78%
CCOC(=O)Nc1cc2nncnc2c(NC(=O)OCC)n1,,EC50,,H37Rv,>12.5 µg/mL
CO[C@H]1/C=C/O[C@@]2(C)Oc3c(C)c(O)c4c(=O)c(c5oc6cc(N7CCN(C(C)C)CC7)cc(=O)c6nc5c4c3=C2O)NC(=O)/C(C)=C\C=C\[C@H](C)[C@H](O)[C@@H](C)[C@@H](O)[C@@H](C)[C@H](OC(C)=O)[C@@H]1C,,MBC,,31 (rifampin-resistant),0.4 µg/mL
O=C1C(Cl)=C(N=Nc2c(Cl)c(O)c3ccccc3c2O)C(=O)c2ccccc21,,MIC,BACTEC,H37Rv,3.13 µg/mL
Nc1ccc(Nc2ccc(S(=O)(=O)O)c3ccccc23)c(S(=O)(=O)O)c1,,MIC,,H37Rv,>100 µg/mL
NC[C@H]1O[C@H](O[C@H]2[C@H](O)[C@@H](O[C@H]3O[C@H](CO)[C@@H](O)[C@H](N)[C@H]3O)[C@H](N)C[C@@H]2N)[C@H](O)[C@@H](O)[C@@H]1O,,MIC,,TN3432 (W),>256 µg/mL
C[C@@H]1[C@H]2C[C@@H](C[C@H]1NCCNCCCCc1ccccc1)C2(C)C,,MIC,,,50 µM
CC(C)CC1NC(=O)CCC(NC(=O)C(Cc2ccc(O)cc2)NC(=O)OCc2ccccc2)C(=O)NC(Cc2ccccc2)C(=O)NC(Cc2ccccc2)NC1=O,6.25 µg/mL,inhibition,resazurin,H37Rv,-16%
O=C(/C=C/c1ccco1)c1ccc(Br)cc1O,,EC50,,H37Rv,>12.5 µg/mL
CN(c1ccc(N(C)S(=O)(=O)c2cccc([N+](=O)[O-])c2)cc1)S(=O)(=O)c1cccc([N+](=O)[O-])c1,,MIC,,H37Rv,>100 µg/mL
Cn1c(=O)nc2n(-c3cccc(Cl)c3)c3ccccc3nc-2c1=O,12.5 µg/mL,inhibition,BACTEC,H37Rv,56%
Oc1ccc(Cl)c(O)c1,,MIC,,H37Rv,>100 µg/mL
CC(C)c1ccc2c(c1)CC[C@H]1[C@](C)(CNCCNCCc3ccccc3)CCC[C@]21C,,MIC,,,12.5 µM
Nc1ncccc1/C=C/C(=O)c1cc(Cl)ccc1O,,EC50,,,>12.5 µg/mL
O=c1c2ccccc2nnn1CCc1ccccc1,,MIC bound,BACTEC,H37Rv,>12.5 µg/mL
CCCCC(CC)CN1CN(CC(CC)CCCC)CC(C)(NCCNCc2cccc(OC)c2OC)C1,,MIC,,,25 µM
Fc1ccccc1CNCCNCCc1ccc(Cl)cc1Cl,,MIC,,,50 µM
CO[C@H]1/C=C/O[C@@]2(C)Oc3c(C)c(O)c4c(O)c(c(/C=N/N5CCN(C)CC5)c(O)c4c3C2=O)NC(=O)/C(C)=C\C=C\[C@H](C)[C@H](O)[C@@H](C)[C@@H](O)[C@@H](C)[C@H](OC(C)=O)[C@@H]1C,,MIC,,TN792,8 µg/mL
CCCCC(CC)CN1CN(CC(CC)CCCC)CC(C)(NCCNC[C@@H]2CC[C@H]3C[C@@H]2C3(C)C)C1,,MIC,,,25 µM
C[C@@H]([C@H]1CC[C@H]2[C@@H]3[C@@H]4O[C@@H]4[C@@]4(O)CC=CC(=O)[C@]4(C)[C@H]3C[C@H](O)[C@]12C)[C@H]1C[C@]2(C)O[C@]2(C)C(=O)O1,6.25 µg/mL,inhibition,resazurin,H37Rv,23%
CC[C@H]1OC(=O)[C@H](C)[C@@H](O[C@H]2C[C@@](C)(OC)[C@@H](O)[C@H](C)O2)[C@H](C)[C@@H](O[C@@H]2O[C@H](C)C[C@H](N(C)C)[C@H]2O)[C@](C)(OC)C[C@@H](C)C(=O)[C@H](C)[C@@H](O)[C@]1(C)O,,MBC,,ATCC 35822,>8 µg/mL
CCCCCCCCCCCNCCNCCc1ccc(O)c(OC)c1,,MIC,,,12.5 µM
C[C@H]1C[C@H](N)CN1c1cc2c(cc1F)c(=O)c(C(=O)O)cn2-c1ccc(F)cc1F,,MBC,,ATCC 35826,8 µg/mL
CCC(=O)c1ccc(NC(C)=O)cc1,,MIC,,H37Rv,>100 µg/mL
Oc1ccc(CCNCCNCc2ccccc2)cc1,,MIC,,,50 µM
NCC[C@H](O)C(=O)N[C@@H]1C[C@H](N)[C@@H](O[C@H]2O[C@H](CN)[C@@H](O)[C@H](O)[C@H]2O)[C@H](O)[C@H]1O[C@H]1O[C@H](CO)[C@@H](O)[C@H](N)[C@H]1O,,MIC,broth dilution / resazurin,MDR15,4 µg/mL
Nc1ncc(NCCCNc2ccc(C(=O)NC(CCC(=O)O)C(=O)O)cc2)c(=O)[nH]1,12.5 µg/mL,inhibition,BACTEC,H37Rv,0%
CC(Cc1c[nH]c2ccccc12)NCCNC1CCCc2ccccc21,,MIC,,,50 µM
CCCC(=O)NCCNC(=O)CCC,,MIC,,H37Rv,>100 µg/mL
Fc1ccc(CCNCCNCCc2ccccc2F)cc1,,MIC,,,25 µM
C[C@@H]1CN(c2c(F)c(N)c3c(=O)c(C(=O)O)cn(C4CC4)c3c2F)C[C@H](C)N1,,MBC,,ATCC 35830,0.03 µg/mL
CCOC(=O)/C(O)=C\c1ccc2ccccc2n1,,MIC,,H37Rv,50 µg/mL
COCCNC(=O)C1C(=O)N(CCOC)C(=O)/C1=N/N,,MIC,BACTEC,H37Rv,≥12.8 µg/mL
Brc1cccc(C=Nc2ccccc2)c1,,MIC,,H37Rv,>100 µg/mL
C/C(=N\NC(=S)NNC(=S)N(C)c1ccccc1)c1ccccn1,,MIC bound,BACTEC,H37Rv,>12.5 µg/mL
CC(CNCC(c1ccccc1)c1ccccc1)NC1CCCCCCC1,,MIC,,,50 µM
COc1cc(/C=N/c2nncs2)ccc1O,12.5 µg/mL,inhibition,BACTEC,H37Rv,-18%
CC(Nc1ccnc(N)c1[N+](=O)[O-])/C(=N\O)c1ccc(O)cc1,,EC50,,H37Rv,>12.5 µg/mL
Cl.c1ccc(NCCCN2CCCCC2)nc1,,MIC,,H37Rv,>100 µg/mL
CO[C@H]1/C=C/O[C@@]2(C)Oc3c(C)c(O)c4c(=O)c(c5oc6cc(N7CCN(CC(C)C)CC7)cc(=O)c6nc5c4c3=C2O)NC(=O)/C(C)=C\C=C\[C@H](C)[C@H](O)[C@@H](C)[C@@H](O)[C@@H](C)[C@H](OC(C)=O)[C@@H]1C,,MIC,,35 (rifampin-resistant),0.1 µg/mL
Cc1cc([As](=O)(O)O)ccc1O,,MIC,,H37Rv,>100 µg/mL
COc1ccc(OC)c(CCNCCNCc2ccc(OC)c(OC)c2)c1,,MIC,,,6.25 µM
c1ccc(CNc2nnc3nc(-c4ccccc4)c(-c4ccccc4)nn23)cc1,,MIC bound,BACTEC,H37Rv,>12.5 µg/mL
c1ccc2c(c1)ccc1cc3c(ccc4ccccc43)cc12,,MIC,,H37Rv,>100 µg/mL
CCNc1cc(N)[n+](CC)c2n[nH]c(N)c12,,MIC,BACTEC,H37Rv,≥12.5 µg/mL
CCOCCCNCCNCC(c1ccccc1)c1ccccc1,,MIC,,,50 µM
CCN(CC)CC1CCc2ccc3ccccc3c2C1O.Cl,,MIC,,H37Rv,25 µg/mL
CCC[CH2][Sn]1([CH2]CCC)[O]C(=O)CN=Cc2c(ccc3ccccc23)[O]1,12.5 µg/mL,inhibition,BACTEC,H37Rv,12%
C[C@H]1COc2c(N3CCN(C)CC3)c(F)cc3c(=O)c(C(=O)O)cn1c23,,MIC90,,MDR,4 µg/mL
CCN(CC)CCNc1ccc(C)c2oc3ccc(O)cc3c(=O)c12,,MIC,,EMB-R,12.5 µg/mL
Nc1ccc(Cc2ccc(N)c(N)c2)cc1N,,MIC,,H37Rv,>100 µg/mL
CC(=O)N/N=C/c1ccc([N+](=O)[O-])o1,12.5 µg/mL,inhibition,BACTEC,H37Rv,88%
CCCCCC(C)(O)C#CC(C)(O)CCCCC,,MIC,,H37Rv,>100 µg/mL
Nc1nc2ccc(CSc3ccc(C(=O)NC(CCC(=O)O)C(=O)O)cc3)cc2c(=O)[nH]1,12.5 µg/mL,inhibition,BACTEC,H37Rv,22%
CC(C)c1ccc2c(c1)CC[C@H]1[C@](C)(CNCCNCc3cccc4ccccc34)CCC[C@]21C,,MIC,,,50 µM